Measurements as given in patent publication US20150158934A1.

Target: gp120IIIB (subgroup B) (HIV-1) (UniProt P04578)
Experiment: SPR

Which results are given for “sCD4 4-D (from UniProt P01730 26-390) (receptor; other documents disagree on this pair)”?
Kd: 0.86 nM; koff: 0.000112 s⁻¹; kon: 130000 M⁻¹ s⁻¹
